Experimental findings from patent US11771694B2, “Arylamide compounds for treatment and prevention of viral infections” (priority 2020, dated 2023) are described below.

The nature of the assay: Serial passage assay for bacterial resistance. The note with it: compared to daptomycin.

`N=C(N)NCCCCC(=O)Nc1cc(C(F)(F)F)cc(NC(=O)c2cc(C(=O)Nc3cc(C(F)(F)F)cc(NC(=O)CCCCNC(=N)N)c3OC3CCNC3)ncn2)c1OC1CCNC1` (stereo not shown) [brilacidin]: the “risk for developing bacterial resistance” value was “low risk for developing bacterial resistance”.
